The source of these data is PubChem BioAssay AID504884 (Broad Institute, 2011).

This is a selection; strong and weak results do not stand in their true shares. The source made the active and inactive calls. Cut-off read from the data, not from the text of the source: active = activity above about 50% (passing the limit was not always enough); inconclusive = no clear call, values can overlap the other calls.

The test system of this assay is DNA topoisomerase I (Yersinia pestis CO92). The assay is described as follows: Yersinia pestis topoisomerase I inhibitors, primary screen, biochemical, cleavage product accumulation, plate reader, single point (AID 504884). The conditions noted are these: Y. pestis Topo-I cleavage product accumulation, at 10 µM, stronger effect = higher value.
For the compound `O=P(Nc1nccs1)(c1ccccc1)c1ccccc1`, the activity was inactive: 3.32%.

`CC(C)C(=O)NC(Sc1ccccc1)C(Cl)(Cl)Cl` (stereo unspecified): the activity is inactive: -6.79%.

`c1nnnn1CCn1cnnn1`: the activity was inactive: 6.01%. For `O=[As](O)(c1ccccc1)c1ccc(O)cc1` the value was inactive: 4.2%; for `CC(=O)NC(SC(=S)N(C)C)C(Cl)(Cl)Cl` (stereo unspecified), inactive: 2.59%. Next, `O=[N+]([O-])c1ncn(CCn2cnc([N+](=O)[O-])n2)n1`: inactive: 10.1%; `O=[N+]([O-])c1ccc(O)c(/C=N/Nc2ccc([N+](=O)[O-])cc2[N+](=O)[O-])c1`: inactive: -20%; `O=C(OC1CN2CCC1CC2)c1cccc(Cl)c1` (stereo unspecified): inactive: 1.75%. In the case of `C(Cc1nn[nH]n1)Cc1nn[nH]n1`, the activity is inactive: 6.32%. Regarding `Nc1ccc([As](=O)(O)c2ccc([N+](=O)[O-])cc2)cc1`, the activity is inactive: -13.3%. Next, `CN(C)C1(CNC(=O)c2ccc(Cl)c(S(N)(=O)=O)c2)CCCCC1`: inactive: 2.95%. Take `O=P(Nc1ccccn1)(c1ccc(Br)cc1)c1ccc(Br)cc1`: the activity is inactive: -8.94%. Take `COc1ccc(N)c([N+](=O)[O-])c1[N+](=O)[O-]`: the activity was inactive: -8.64%. In the case of `O=P(Nc1nc2ccccc2s1)(c1ccccc1)c1ccccc1`, the activity was inactive: 6.76%. For `C[C@H]1OP(=O)(Oc2ccccc2)[C@H](O)[C@H](O)[C@H]1N=[N+]=[N-]` (stereo partly specified) the value was inactive: 2.91%; for `O=C(OC1CN2CCC1CC2)c1ccccc1` (stereo unspecified), inactive: 4.59%.

Take `CCC(=O)N1C2C3N(C(=O)CC)C1C1N(C(=O)CC)C(C(N1C(=O)CC)N3C(=O)CC)N2C(=O)CC`: the activity is inactive: -0.225%. For `COC(=O)c1cc2c(s1)N=C(c1ccccc1)N(C)P2(=O)N1CCOCC1` (stereo unspecified) the value was inactive: -1.82%; for `CC(=O)NC(SC(=S)N(CC(C)C)CC(C)C)C(Cl)(Cl)Cl` (stereo unspecified), inactive: 21.4%.

As for `Cc1ccc(OP(=O)(Nc2ccccn2)Oc2ccc(C)cc2)cc1`, the activity is inactive: 23.3%. For `CC(NC(=O)COC(=O)C(O)(c1ccccc1)c1ccccc1)c1ccccc1` (stereo unspecified), the activity was inactive: 14.8%. Next, `Cc1ccccc1OP(=O)(Nc1ccccn1)Oc1ccccc1C`: inactive: 27.4%; `O=c1c2cc([N+](=O)[O-])ccc2[nH]c2c([N+](=O)[O-])cc([N+](=O)[O-])cc12`: inactive: 2.32%; `CN(C)C(=O)Oc1noc2ccccc12`: inactive: -4.76%. Regarding `c1ccc(-c2nn[nH]n2)c(-c2nn[nH]n2)c1`, the activity was inactive: -4.03%. As to `Cc1ccc(NP(=O)(Oc2cccc(C)c2)Oc2cccc(C)c2)nc1`, the activity is inactive: 3.33%. For `O=C(NC1CCS(=O)(=O)C1)NP(=S)(Oc1ccccc1)Oc1ccccc1` (stereo unspecified), the activity is inactive: -0.727%. For `CCNC(=S)/N=C(\N)N[N+](=O)[O-]`, the activity was inactive: 1.85%.

As for `O=P1(N(CCCl)CCCl)OCCC2CCCCN21` (stereo unspecified), the activity was inactive: -9.9%. For `Cc1ccccc1CN(C)C(=O)COC(=O)C(O)(c1ccccc1)c1ccccc1` the value was inactive: 18.9%; for `C[C@H]1OP(=O)(Oc2ccccc2)C[C@@H]2O[C@@H]21` (stereo partly specified), inactive: -1.11%; for `C[C@@H]1C=CCP(=O)(Oc2ccccc2)O1` (stereo partly specified), inactive: 7.75%. For `CC(=O)c1ccc(N2CC2c2ccncc2)cc1` (stereo unspecified) the value was inactive: 3.6%. Next, `N#C/C(=C\c1ccc(N(CCBr)CCBr)cc1)C(N)=O`: inactive: 15.1%. For the compound `COC(=O)C1(C)COP(=O)(NCc2ccccc2)OC1` (stereo unspecified), the activity is inactive: -1.26%. Next, `CC(=O)Nc1ccc([As](=O)(O)O)c(O)c1`: inactive: 4.82%; `CC(=O)Nc1ccc(Oc2c([N+](=O)[O-])cc([N+](=O)[O-])cc2[N+](=O)[O-])cc1`: inactive: 0.274%.

For `O=P1(Nc2nc3ccc(Cl)cc3s2)COc2ccccc2O1` (stereo unspecified), the activity was inactive: -1.63%. `CCOc1ccc(C2=NCC(CBr)S2)cc1` (stereo unspecified): the activity is inactive: 3.65%. Next, `CC(C)(C)C(=O)NC(Sc1ccccc1)C(Cl)(Cl)Cl` (stereo unspecified): inactive: 1.32%; `CCc1cc(O)c([N+](=O)[O-])c(C)c1[N+](=O)[O-]`: inactive: 2.34%. Next, `Oc1ccccc1CNc1ccccn1`: inactive: 6.89%; `O=C(NC(Sc1ccncn1)C(Cl)(Cl)Cl)c1ccccc1` (stereo unspecified): inactive: -8.68%. Next, `Nc1cc(N)c2nonc2c1[N+](=O)[O-]`: inactive: -6.31%. In the case of `CC(C)CC(=O)NC(Sc1ccc(Cl)cc1)C(Cl)(Cl)Cl` (stereo unspecified), the activity is inactive: 6.6%. For `CN(C(=O)Cc1ccc(Cl)c(Cl)c1)[C@H]1CCCC[C@H]1N1CCCC1` the value was inactive: 9.11%. For `Cc1ccc(N/C(=N/P(=O)(N2CCOCC2)N2CCOCC2)N2CCOCC2)cc1` the value was inactive: -13.3%; for `NC(=O)c1cc([N+](=O)[O-])cc([N+](=O)[O-])c1N`, inactive: 0.916%; for `CN1CCCC(OC(=O)C(c2ccccc2)c2ccccc2)C1` (stereo unspecified), inactive: -5.19%. Next, `Clc1ccc(Cl)c(NC2=NCC(CBr)S2)c1` (stereo unspecified): inactive: 3.1%. In the case of `COc1ccccc1OP(=O)(Nc1ccc(C)cn1)Oc1ccccc1OC`, the activity is inactive: 5.8%. In the case of `Cc1ccc(OP(=O)(Nc2nccs2)Oc2ccc(C)cc2)cc1`, the activity is inactive: 22.8%. Regarding `Nc1cccc2ccc([As](=O)(O)O)cc12`, the activity was inactive: 5.01%. Next, `CCN(N=Nc1nonc1N)c1nonc1N`: inactive: 4.69%; `O=P(Nc1nc2ccc(Cl)cc2s1)(c1ccccc1)c1ccccc1`: inactive: -5.21%; `CN(C)P(=O)(N(C)C)n1c(Nc2ccccc2)nnc1-c1ccccc1`: inactive: 17.3%. `CC(=O)Nc1ccc([As](=O)(O)O)cc1`: the activity was inactive: -8.16%. Next, `O=C(O)c1ccccc1[As](=O)(O)O`: inactive: -1.79%; `CCCC1OP(N)(=O)OCC1CC` (stereo unspecified): inactive: 2.5%; `Cc1cc(SC(NC(=O)c2ccc(F)cc2)C(Cl)(Cl)Cl)ncn1` (stereo unspecified): inactive: -14%. `CCOP(=O)(Nc1ccccc1)OCC`: the activity was inactive: -3.21%.

For `CN(C(=O)Cc1ccc(Cl)c(Cl)c1)[C@H]1CCCC[C@@H]1N1CCCC1`, the activity was inactive: -3.21%.

For the compound `Cc1ccc(NP(=O)(Oc2ccccc2F)Oc2ccccc2F)nc1`, the activity is inactive: -3%. For `O=[N+]([O-])c1ncn(CCn2ncnc2[N+](=O)[O-])n1`, the activity was inactive: 2.73%.

In the case of `CC(C)(C)C(=O)NC(Sc1ccncn1)C(Cl)(Cl)Cl` (stereo unspecified), the activity was inactive: -0.748%. For the compound `O=C(O)CNc1ccc([As](=O)(O)O)cc1`, the activity is inactive: -5.41%. Consider `COC(=O)C1(C)COP(=O)(Nc2ccccc2)OC1` (stereo unspecified), for which the activity is inactive: -4.17%.

On to `O=[N+]([O-])c1cccc(NC2=NCC(CBr)S2)c1` (stereo unspecified), for which the activity was inactive: -0.414%. `O=P1(N(CCCl)CCCl)OCCCS1` (stereo unspecified): the activity is inactive: 7.07%. For `O=C(Nc1cc([As](=O)(O)O)ccc1O)c1ccccc1` the value was inactive: -6.91%; for `CCN(/C(=N/P(=O)(N1CCOCC1)N1CCOCC1)N1CCOCC1)c1ccc(OC)cc1`, inactive: -8.85%; for `Nc1ccc([As](=O)(O)c2ccc(N)cc2)cc1`, inactive: 2.04%. Next, `C[N+]1=C2C=CC=CC=C2SC12C([N+](=O)[O-])=CC([N+](=O)[O-])=C[C-]2[N+](=O)[O-]` (stereo unspecified): inactive: -25.1%; `CC1CCN(C(=O)Oc2c(Cl)cc(Cl)c3cccnc23)CC1`: inactive: 38.1%; `c1cc(-c2nn[nH]n2)ccc1-c1nn[nH]n1`: inactive: 6.61%.

With `CC(C)c1nc(Nc2ccccc2)n(P(=O)(N(C)C)N(C)C)n1`, the activity was inactive: 2.59%. For `CC(C)=N/N=C(\N)N[N+](=O)[O-]` the value was inactive: -6.1%; for `CN(C)C(=O)OCCc1n(C)cc[n+]1C`, inactive: -3.9%. Next, `COc1ccc(C2=NCC(CBr)S2)cc1` (stereo unspecified): inactive: -15%; `Cc1ccc(NP(=O)(Oc2ccccc2)Oc2ccccc2)nc1`: inactive: 4%; `O=[N+]([O-])c1cc([N+](=O)[O-])c(CCNc2ccccc2)c([N+](=O)[O-])c1`: inactive: 2.1%.

`CCc1nc2c(n1)c1c(non1O)c1c2no[n+]1[O-]`: the activity was inactive: 5.12%. On to `CC(=O)N1C2C3N(C(C)=O)C1C1N(C(C)=O)C(C(N1C(C)=O)N3C(C)=O)N2C(C)=O`, for which the activity is inactive: -8.75%.

For `O=[N+]([O-])c1cccc2n[nH]nc12`, the activity is inactive: -4.17%. `O=C(OC1CN2CCC1CC2)c1cccc([N+](=O)[O-])c1` (stereo unspecified): the activity is inactive: -3.2%. For `CSc1ccc(Nc2c([N+](=O)[O-])cc([N+](=O)[O-])cc2[N+](=O)[O-])cc1` the value was inactive: -14.3%. For `CCOC(=O)c1ccc(NC(=O)C(C)(CCl)SC)cc1` (stereo unspecified) the value was inactive: 1.04%. For `CCC(C)N(CC(C)C)C(=S)SC(NC(C)=O)C(Cl)(Cl)Cl` (stereo unspecified) the value was inactive: 14%; for `COP1(=S)c2c(C)nn(CCC#N)c2N=C(c2ccc(F)cc2)N1C` (stereo unspecified), inactive: 0.057%.

For `O=C(O)C(=O)c1ccc(N(CCCl)CCCl)cc1`, the activity was inactive: 1.98%. Regarding `O=C(COc1ccccc1)OC1CN2CCC1CC2` (stereo unspecified), the activity is inactive: -4.48%.

Take `O=C(Nc1ccncc1[N+](=O)[O-])c1ccc([N+](=O)[O-])cc1[N+](=O)[O-]`: the activity was inactive: 4.4%. For `CCOC(=O)Nc1cccc([As](=O)(O)O)c1` the value was inactive: -2.95%; for `Cc1cc(SC(NC=O)C(Cl)(Cl)Cl)ncn1` (stereo unspecified), inactive: -1.29%. For `O=P(Nc1ccccn1)(c1cccc2ccccc12)c1cccc2ccccc12` the value was inactive: 23.8%; for `O=[N+]([O-])c1ccc(Nc2ccc(Oc3ccc([N+](=O)[O-])cc3[N+](=O)[O-])cc2)c([N+](=O)[O-])c1`, inactive: -1.76%. With `O=C(O)C(O)c1ccc(N(CCCl)CCCl)cc1` (stereo unspecified), the activity is inactive: 1.84%. With `CCOC(=O)Nc1ccc([As](=O)(O)O)c(O)c1`, the activity is inactive: 4.47%. For `CC1CCNP(=O)(N(CCCl)CCCl)O1` (stereo unspecified) the value was inactive: -7.46%; for `COP(=O)(OC)N1CC1c1ccccc1` (stereo unspecified), inactive: 6.86%.

Take `CCCCOc1ccc(C(=O)NCC2(N3CCCCC3)CCCCC2)cc1OC`: the activity is inactive: 5.95%.
